Results of unrelated studies side by side (data: NIAID ChemDB).

Common to all: whole-cell or culture tests; species: Aspergillus fumigatus

Two numbers with a dash give a range or band.

structure	read-out	conditions	strain or isolate	read by	result
O=c1c2cccc(O)c2oc2cccc(O)c12	MIC80	-	CBS 113.26	-	16 µg/mL
Cc1noc(NS(=O)(=O)c2ccc(N)cc2)c1C	MIC	-	IFM 41362	-	128 µg/mL
COc1c2c(c3oc4c(O)cccc4c(=O)c3c1O)C=CC(C)(C)O2	MIC80	-	-	-	8 µg/mL
C[C@@H](N1CCN(Cc2cn(-c3ccc(F)cc3)c3cc(Cl)ccc23)CC1)[C@](O)(Cn1cncn1)c1ccc(F)cc1F	MIC80	-	ATCC 16424	resazurin	1 µg/mL
C[C@@H](c1ncncc1F)[C@](O)(Cn1cncn1)c1ccc(F)cc1F	MIC90	-	-	broth dilution	0.5 µg/mL
CC(C)c1c(C(c2ccccc2)n2ccnc2)cnn1-c1ccccc1	MIC	-	-	-	>200 µM
COc1ccc(NS(=O)(=O)c2ccc(N)cc2)nn1	MIC	-	IFM 48051	-	≥256 µg/mL
O=C(c1ccccc1)C(c1ccccc1)n1cncn1	MIC90	-	-	agar	128 µg/mL
CCC(C)CCCCCCC1CC(=O)NCC(=O)N[C@@H](CCCN)C(=O)N[C@@H](C(C)CC)C(=O)N1	MIC	-	IFM4942	-	>80 µg/mL
C[C@H]1[C@H](O)[C@@H](C)/C=C/C=C/C=C/C=C/C=C/C=C/C=C/[C@H](O[C@@H]2O[C@H](C)[C@@H](O)[C@H](N)[C@@H]2O)C[C@@H]2O[C@](O)(C[C@@H](O)C[C@@H](O)CC[C@H](O)[C@@H](O)C[C@@H](O)CC(=O)O[C@H]1C)C[C@H](O)[C@H]2C(=O)O	MIC	-	-	agar diffusion	20 µg/mL
CN[C@@H]1[C@H](O[C@@H]2OC[C@@H](O)[C@H](O)[C@H]2O)[C@@H](O)[C@H](O[C@H]2c3cc(C)c(C(=O)NCC(=O)O)c(O)c3-c3c(cc4c(c3O)C(=O)c3cc(OC)cc(O)c3C4=O)[C@@H]2O)O[C@@H]1CO	MIC	-	IAM2034	-	6.3 µg/mL
O=c1c2cc(O)ccc2oc2cc(O)cc(O)c12	MIC80	-	-	-	250 µg/mL
O=c1c2ccccc2oc2ccc(O)cc12	MIC80	-	CBS 113.26	-	31 µg/mL
CCC(C)CC(C)CCCCCCCCC(=O)N[C@H]1C[C@@H](O)[C@H](NCCN)NC(=O)[C@@H]2[C@@H](O)CCN2C(=O)[C@H]([C@H](O)CCN)NC(=O)[C@H]([C@H](O)[C@@H](O)c2ccc(O)cc2)NC(=O)[C@@H]2C[C@@H](O)CN2C(=O)[C@H]([C@@H](C)O)NC1=O	MIC50	-	62 isolates	-	0.5 µg/mL
CC(O)Cn1cc(CN2CCN([C@H](C)[C@](O)(Cn3cncn3)c3ccc(F)cc3F)CC2)c2cccc(Cl)c21	MIC80	-	ATCC 16424	resazurin	128 µg/mL
C[C@@H](n1ccn(-c2ccc(OC(F)(F)F)cc2)c1=O)C(O)(Cn1cncn1)c1ccc(F)cc1F	MIC	-	437	-	4 µg/mL
CCCCCCCCCCCCCCCC(=O)NC1CC(O)C(O)NC(=O)C2C(O)C(CO)CN2C(=O)C(CCC(N)=O)NC(=O)C(C(O)C(O)c2ccc(O)cc2)NC(=O)C2CC(O)CN2C(=O)C(C(C)O)NC1=O	MIC	-	-	-	>20 µg/mL
CC(=O)Oc1c(Cl)cccc1C(=O)Nc1ccc(Cl)c(Cl)c1	MIC	-	231	-	62.5 µg/mL
C[C@@H](N1CCN(Cc2cn(Cc3ccc(F)cc3)c3c(Cl)cccc23)CC1)[C@](O)(Cn1cncn1)c1ccc(F)cc1F	MIC80	-	ATCC 16424	resazurin	8 µg/mL
Cc1cc(NS(=O)(=O)c2ccc(N)cc2)no1	MIC	-	IFM 51126	-	64 µg/mL
C[C@@H](N1CCN(Cc2cn(Cc3ccc(C(F)(F)F)cc3)c3c(F)cccc23)CC1)[C@](O)(Cn1cncn1)c1ccc(F)cc1F	MIC80	-	ATCC 16424	resazurin	8 µg/mL
c1ccc(C(c2cnn(-c3ccccc3)c2)n2cncn2)cc1	MIC	-	-	-	>200 µM
C[C@H]1[C@H](O)[C@@H](C)/C=C/C=C/C=C/C=C/C=C/C=C/C=C/[C@H](O[C@@H]2O[C@H](C)[C@@H](O)[C@H](N)[C@@H]2O)C[C@@H]2O[C@](O)(C[C@@H](O)C[C@@H](O)CC[C@H](O)[C@@H](O)C[C@@H](O)CC(=O)O[C@H]1C)C[C@H](O)[C@H]2C(=O)O	MIC50	-	3 clinical isolates	-	1 µg/mL
CC(C)CC(O)C(=O)O	MFC100	-	MRCM 32208	broth dilution / visual reading	18000 µg/mL
CC(=O)Oc1cc(Cl)ccc1C(=O)Nc1ccc(C(F)(F)F)cc1	MIC	-	231	-	7.81 µg/mL
CCC(C)n1ncn(-c2ccc(N3CCN(c4ccc(OC[C@H]5CO[C@](Cn6cncn6)(c6ccc(Cl)cc6Cl)O5)cc4)CC3)cc2)c1=O	MIC100	-	MRCM 32552	broth dilution / visual reading	>8 µg/mL
CC(N(C)C)C(O)(Cn1cncn1)c1ccc(F)cc1F	MIC	-	KA-01	-	50 µg/mL
C[C@H]1[C@H](O)[C@@H](C)/C=C/C=C/C=C/C=C/C=C/C=C/C=C/[C@H](O[C@@H]2O[C@H](C)[C@@H](O)[C@H](N)[C@@H]2O)C[C@@H]2O[C@](O)(C[C@@H](O)C[C@@H](O)CC[C@H](O)[C@@H](O)C[C@@H](O)CC(=O)O[C@H]1C)C[C@H](O)[C@H]2C(=O)O	MIC50	-	150 clinical isolates	-	0.5–1 µg/mL
C[C@@H](n1ccn(-c2ccc(OCC(F)(F)C(F)F)cc2)c1=O)C(O)(Cn1cncn1)c1ccc(F)cc1F	MIC	-	TIMM1728	-	2 µg/mL
CC1(C)C=Cc2c(cc(O)c3c(=O)c4cccc(O)c4oc23)O1	MIC80	-	-	-	31 µg/mL
c1ccc(C(c2ccccc2)n2cncn2)cc1	MIC90	-	-	agar	32 µg/mL
CCC(C)n1ncn(-c2ccc(N3CCN(c4ccc(OC[C@H]5CO[C@](Cn6cncn6)(c6ccc(Cl)cc6Cl)O5)cc4)CC3)cc2)c1=O	MIC	-	Clinical isolates	-	1 µg/mL
C[C@@H](N1CCN(Cc2cn(Cc3ccc(F)cc3)c3c(F)cccc23)CC1)[C@](O)(Cn1cncn1)c1ccc(F)cc1F	MIC80	-	ATCC 16424	resazurin	16 µg/mL
C[C@@H](n1ccn(-c2ccc(C(F)(F)F)cc2)c1=O)C(O)(Cn1cncn1)c1ccc(F)cc1F	MIC	-	437	-	4 µg/mL
Clc1ccc(C(c2ccccc2)n2cnc3ccccc32)cc1	MIC90	-	-	agar	>256 µg/mL
C[C@@H](N1CCN(Cc2cn(Cc3ccc(F)cc3F)c3cc(Cl)ccc23)CC1)[C@](O)(Cn1cncn1)c1ccc(F)cc1F	MIC80	-	ATCC 16424	resazurin	8 µg/mL
O=c1c2ccccc2oc2c(O)cccc12	MIC80	-	CBS 113.26	-	31 µg/mL
Cc1ccc([C@H]2SCC(=O)N2c2nc(N3CCN(C)CC3)n[nH]2)cc1	MIC	-	168.95	broth dilution	10 µg/mL
CC(=O)Oc1c(Cl)cccc1C(=O)Nc1ccc(Cl)cc1	MIC	-	231	-	15.63 µg/mL
Cc1ccc(C(C)C)c(O)c1	MLC	-	ATCC 46645	-	0.64 µg/mL
C[C@@H](N1CCN(c2ccc(OC(F)(F)C(F)F)cc2)C1=O)C(O)(Cn1cncn1)c1ccccc1F	MIC	-	IFO6344	-	0.5 µg/mL
CC1=CC[C@@H]2[C@H](C1)C2(C)C	MIC	-	F05	-	0.16 µg/mL
C[C@@H](c1ncncc1F)[C@](O)(Cn1cncn1)c1ccc(F)cc1F	MIC90	-	62 isolates	-	0.5 µg/mL
C[C@@H](N1CCN(Cc2cn(Cc3ccc(F)cc3)c3ccccc23)CC1)[C@](O)(Cn1cncn1)c1ccc(F)cc1F	MIC80	-	ATCC 16424	resazurin	16 µg/mL
CCCCCOc1ccc(-c2cc(-c3ccc(C(=O)N[C@H]4C[C@@H](O)[C@@H](O)NC(=O)[C@@H]5[C@@H](O)[C@@H](C)CN5C(=O)[C@H]([C@H](O)CC(N)=O)NC(=O)[C@H]([C@H](O)[C@@H](O)c5ccc(O)c(OS(=O)(=O)O)c5)NC(=O)[C@@H]5C[C@@H](O)CN5C(=O)[C@H]([C@@H](C)O)NC4=O)cc3)no2)cc1	MIC90	-	17 isolates	-	≤0.0078 µg/mL
CN1CCN(c2n[nH]c(N3C(=O)CS[C@@H]3c3ccc4c(c3)OCO4)n2)CC1	MIC	-	168.95	broth dilution	50 µg/mL
Clc1ccc(C(c2ccccc2)N2CCN(CCn3cncn3)CC2)cc1	MIC90	-	-	agar	256 µg/mL
C[C@@H](N1CCN(Cc2cn(Cc3ccc(Cl)cc3)c3ccccc23)CC1)[C@](O)(Cn1cncn1)c1ccc(F)cc1F	MIC80	-	ATCC 16424	resazurin	16 µg/mL
CC(C)(C)c1c(C(c2ccccc2)n2ccnc2)cnn1-c1ccccc1	MIC	-	-	-	>200 µM
C[C@@H](N1CCN(c2ccc(F)cc2)C1=O)C(O)(Cn1cncn1)c1ccc(F)cc1F	MIC	-	TIMM1728	-	4 µg/mL
C[C@@H](N1CCN(Cc2cn(Cc3ccc(Cl)cc3)c3c(Cl)cccc23)CC1)[C@](O)(Cn1cncn1)c1ccc(F)cc1F	MIC80	-	ATCC 16424	resazurin	8 µg/mL
C[C@H]1[C@H](O)[C@@H](C)/C=C/C=C/C=C/C=C/C=C/C=C/C=C/[C@H](O[C@@H]2O[C@H](C)[C@@H](O)[C@H](N)[C@@H]2O)C[C@@H]2O[C@](O)(C[C@@H](O)C[C@@H](O)CC[C@H](O)[C@@H](O)C[C@@H](O)CC(=O)O[C@H]1C)C[C@H](O)[C@H]2C(=O)O	MIC	-	4 strains	-	0.2–2 µg/mL
C[C@@H](c1ncncc1F)[C@](O)(Cn1cncn1)c1ccc(F)cc1F	MLC50	-	-	-	0.25 µg/mL
CCCCCC	MIC80	-	-	-	8 µg/mL
Nc1ncccc1-c1cc(Cc2ccc(COc3ccccn3)cc2)no1	MIC50	30% human serum	IFM 51126	broth dilution	1 µg/mL
CCC(C)n1ncn(-c2ccc(N3CCN(c4ccc(OC[C@H]5CO[C@](Cn6cncn6)(c6ccc(Cl)cc6Cl)O5)cc4)CC3)cc2)c1=O	MIC50	-	35 isolates	-	0.25 µg/mL
C=CCN(CC=C)C(C)C(O)(Cn1cncn1)c1ccc(F)cc1F	MIC	-	KA-01	-	1.56 µg/mL
C[C@@H]1CCC2(OC1)OC1CC3C4C[C@H](O)[C@H]5C[C@@H](O)CC[C@]5(C)C4CC(=O)[C@]3(C)C1[C@@H]2C	MFC	-	ATCC 90906	-	20 µg/mL
Cc1nnc(NS(=O)(=O)c2ccc(N)cc2)s1	MIC	-	IFM 48051	-	≥256 µg/mL
C[C@@H](N1CCN(c2ccc(OCC(F)(F)C(F)F)cc2)C1=O)C(O)(Cn1cncn1)c1ccccc1F	MIC	-	IFO6344	-	0.5 µg/mL
CCC(C)CCCCCCCCC1CC(=O)NCC(=O)N[C@@H](CCCN)C(=O)N[C@@H](C(C)C)C(=O)N1	MIC	-	IFM4942	-	>80 µg/mL
CCc1c(C(c2ccccc2)n2ccnc2)cnn1-c1ccccc1	MIC	-	-	-	>200 µM
O=C1CS[C@H](c2ccccc2)N1c1nc(N2CCOCC2)n[nH]1	MIC	-	168.95	broth dilution	100 µg/mL
CCC(C)CC(C)CCCCCCCCC(=O)N[C@H]1C[C@@H](O)[C@H](NCCN)NC(=O)[C@@H]2[C@@H](O)CCN2C(=O)[C@H]([C@H](O)CCN)NC(=O)[C@H]([C@H](O)[C@@H](O)c2ccc(O)cc2)NC(=O)[C@@H]2C[C@@H](O)CN2C(=O)[C@H]([C@@H](C)O)NC1=O	Geometric mean MEC	-	26 isolates	-	0.28 µg/mL

The first 6 rows once more:

{"structure": "O=c1c2cccc(O)c2oc2cccc(O)c12", "read-out": "MIC80", "strain or isolate": "CBS 113.26", "result": "16 µg/mL"}
{"structure": "Cc1noc(NS(=O)(=O)c2ccc(N)cc2)c1C", "read-out": "MIC", "strain or isolate": "IFM 41362", "result": "128 µg/mL"}
{"structure": "COc1c2c(c3oc4c(O)cccc4c(=O)c3c1O)C=CC(C)(C)O2", "read-out": "MIC80", "result": "8 µg/mL"}
{"structure": "C[C@@H](N1CCN(Cc2cn(-c3ccc(F)cc3)c3cc(Cl)ccc23)CC1)[C@](O)(Cn1cncn1)c1ccc(F)cc1F", "read-out": "MIC80", "strain or isolate": "ATCC 16424", "read by": "resazurin", "result": "1 µg/mL"}
{"structure": "C[C@@H](c1ncncc1F)[C@](O)(Cn1cncn1)c1ccc(F)cc1F", "read-out": "MIC90", "read by": "broth dilution", "result": "0.5 µg/mL"}
{"structure": "CC(C)c1c(C(c2ccccc2)n2ccnc2)cnn1-c1ccccc1", "read-out": "MIC", "result": ">200 µM"}

A number after MIC or MFC names an inhibition level or a share of isolates. Blank or dashed fields: not listed here. Rows are shuffled and stem from different studies.